Fitness effects across NS2B and the NS3 protease domain of Zika virus

The measurements come from Ni et al. 2025 (doi:10.1038/s41467-025-63602-z).

Protein: NS2B and the protease part of NS3 of Zika virus strain MR766. Positions count along the chain below; NS2B spans 2-131 and NS3 starts at 132.
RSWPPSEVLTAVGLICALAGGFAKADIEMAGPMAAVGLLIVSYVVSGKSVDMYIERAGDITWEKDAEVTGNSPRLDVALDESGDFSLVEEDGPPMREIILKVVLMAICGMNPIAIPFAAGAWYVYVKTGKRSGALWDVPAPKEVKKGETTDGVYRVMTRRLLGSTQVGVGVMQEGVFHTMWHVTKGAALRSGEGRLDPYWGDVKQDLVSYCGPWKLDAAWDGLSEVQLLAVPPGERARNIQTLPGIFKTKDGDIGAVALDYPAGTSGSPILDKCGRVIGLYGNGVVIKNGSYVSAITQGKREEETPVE

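Pools of virus carrying all single amino acid changes were selected for growth in Huh-7.5 cells. Sequencing of three replicate libraries (two for positions 207-308) was averaged into one effect per change. The study looked for pockets that tolerate few changes, as a guide for inhibitor design.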

The number is log2 of the effect relative to wild type; negative values mean reduced growth, higher values better tolerance. Each entry names the wild-type residue, its position and the residue put in its place. The authors count -1 or higher as tolerated. Position 1 is the last residue of NS2A. Values above 0 are not proof of better growth: six high scorers were tested one by one, five grew less well than wild type and one about as well. An asterisk is a stop codon; stop codons read about -7, near the floor of the assay. Positions 1-103, 104-206 and 207-308 were made and measured as separate libraries.

* E7D -> -4.45
* V8D -> -5.40
* L9Y -> -1.82
* T10S -> -0.53
* G13T -> -7.17
* A17I -> -2.37
* L18* -> -8.22
* A23T -> 0.49
* I27C -> -1.55
* V50H -> -4.05
* M52G -> -7.10
* E55M -> -1.99
* A57S -> -0.13
* W62N -> -6.20
* E67* -> -4.68
* N71* -> -7.53
* S72T -> -6.76
* R74C -> 0.41
* D80W -> -5.86
* G83I -> -6.00
* G83K -> -6.23
* F85R -> -6.77
* P93E -> -3.93
* I107M -> -1.04
* P112W -> -5.17
* P112Y -> -4.73
* V126S -> -0.93
* G129W -> -6.08
* K130I -> -6.05
* S132L -> -7.19
* K146L -> -1.42
* M157* -> -6.97
* G168W -> -4.64
* G175S -> -3.13
* L189C -> -4.43
* S191T -> -2.76
* R195T -> -7.03
* P198H -> -7.10
* D202* -> -7.50
* K204V -> -7.85
* Q205D -> -6.68
* P213D -> -6.66
* W214L -> -8.72
* K215C -> -4.11
* W220M -> -6.21
* G222M -> 1.16
* L223R -> -7.14
* Q227T -> -7.26
* L228C -> -4.88
* L229W -> -2.80
* V231F -> -1.91
* P232H -> -6.09
* G234A -> -1.46
* R236G -> 0.93
* R236W -> -1.77
* L243Y -> -0.76
* G252Y -> -2.90
* D253S -> -2.91
* G255S -> -7.93
* S268C -> -5.19
* V277L -> -6.48
* G279H -> -4.52
* G284* -> -6.76
* G284K -> -5.07
* G284P -> -5.24
* V293Q -> -4.58
* E304H -> -1.28

A selection of 5 entries from above:

| mutation | log2 effect |
|---|---|
| R74C | 0.41 |
| G13T | -7.17 |
| S132L | -7.19 |
| R195T | -7.03 |
| A17I | -2.37 |